Experimental data reported in patent US20060083754A1, “Pharmaceutical combinations comprising corticoids and immunosuppressants for treating corticoid- and/or calcineurin inhibitors-resistant diseases” (priority 2003, published 2006).
“And” between values parts separate entries of the source, which are not always exact repeats. Equal entries are not always repeated.

System: human peripheral blood mononuclear cells (PBMC)
Experiment: T-cell proliferation assay (BrdU ELISA), PBMC stimulated with SEB
Format: cell-based

For `C[C@@H]1C[C@H]2[C@@H]3CCC4=CC(=O)C=C[C@]4(C)[C@@]3(F)[C@@H](O)C[C@]2(C)[C@@]1(O)C(=O)CO` [DEX, dexamethasone], the OD was 0.847 and 1.382 and 0.919.
